Test results published in patent publication US20150086555A1 (THERACLONE SCIENCES, published 2015).

Key:
[1] = target: Hemagglutinin (HA) of influenza A virus A/Japan/305/57 H2N2, on whole virions (Influenza A virus A/Japan/305/1957 …)
[2] = target: hemagglutinin (HA) of influenza A/Solomon Islands/3/06 (H1N1) on whole virions (Influenza A virus A/Solomon …)
[3] = target: T1, hemagglutinin (HA) of influenza A/Wisconsin/67/05 (H3N2) on whole virions (Influenza A virus …); assay: ELISA; BCC supernatant on coated inactivated whole virions
T1 construct: whole, on cells

Row | Binder | ELISA virus binding (OD450) [1] | ELISA virus binding (OD450) [2] | ELISA virus binding (OD450) [3]
1 | TCN-546 (5089_L08) (antibody, V domains shown) VH: QVQLQQWGAGLLKPSETLSLTCGVYGGSLSDYYWSWIRQPPGKGLEWIGEINHSGGTNYNPSLKRRVTISVDTSKKQFSLKMNSVTAADTAVYYCARGTDPDTEVYCRAGNCAAFDFWGQGTLVTVSS VL: EIVLTQSPGTLSLSPGERATLSCRASHFVIGRAVAWYQQKPGQAPRLLIYGASSRATGIPDRFSGSGSGTDFTLTISRLETEDFAVFYCQHYGSSPRYAFGQGTKLEIK | 0.07 OD450 |  | 
2 | TCN-557 (5081_A04) (antibody, V domains shown) VH: QVQLVQSGAEVKKPGASVKVSCKASGHTFTGYYIHWVRQAPGQGLEWMGWINPDSGATSSAQNFQGRVTMTGDTSSSTAYMELSRLSFDDTAVYYCARVLFTSPFDFWGEGTLVTVSS VL: QAVVTQEPSLAVSPGGTVTLTCGSSTGAVTRGHYPYWFQQKPGQAPRALIYDSAGNRHSWTPARFSGSLLGGKAALTLSGAQPEDEAEYYCLLSYSGVWVFGGGTKLTVL |  | 2.32 OD450 | 0.07 OD450
3 | TCN-521 (3280_D18) (antibody, V domains shown) VH: EVQLVQSGGGLVQPGGSLRLACVVSGFTVTSNYITWVRQAPGKGLEWVSVIYSHGRAYYSASVNGRFTISRHTSKNTVYLEMNSLRPEDTAVYYCAGGGLVGGYDEYFFDYWGQGTLATVSS VL: ETVLTQSPGTLSLTPGERATLSCRVGQSVSGSHLAWYQQKPGQAPRLLIYGASSRATGIPDRFGGSVSGTDFTLTISRLEPEDSAVYYCQQYGDSRYTFGQGTKLEIK |  |  | 1.1 OD450
4 | TCN-543 (5081_G23) (antibody, V domains shown) VH: QVHLVQSGAEVRKPGDSVKVSCKTSGYTFSTYPVAWVRQVPGQGLEWMGWISTYNGNTNFAQNFQGRVTLTTDTTTNTAYMEVRSLKFDDTAVYYCARVEGSYRDFWNNQNRFDPWGQGTLVTVSS VL: SYVLTQPPSVSVAPGQTARISCGGSNIGGKSVHWYQQKPGQAPVLVVYDDSGRPSGIPERFSGSNSGDTATLTISRVEAGDEADYFCQVWDNFGGVFGTGTKVTVL |  |  | 0.07 OD450
5 | TCN-526 (5084_C17) (antibody, V domains shown) VH: EVLMVESGGGLVQPGGSVRLSCVASGFSFSSHWMTWVRQAPGKGLEWVANIEDDGGDKYYVDSVKGRFIISRDNAKNSVYLQMNSLRAEDTAVYFCARGSGSSDRSDYDPHYYYYLDVWGKGATVTVSS VL: DIQLTQSPSSLSASVGDRVTITCRASQSISRYLNWYQQKPGKAPKLLLFAASTLLDGVPSRFSGSGSGTDFTLTISSLQPEDFATYYCQRNHSPSWTFGQGTRVEIK |  | 0.06 OD450 | 3.65 OD450
6 | TCN-560 (5084_P10) (antibody, V domains shown) VH: EVQLVESGGGLVQPGGSLRLSCAASGFIFRNYWMSWVRQAPGKGLEWVANIKQDGREKYYVDSLRGRVNISRDNAENSLYLHMNSLRVEDTAVYFCARARMVVVTGDGFDVWGHGTMVTVSS VL: DIQMTQSPSSLSASVGDRVTITCRASQNIKRYFNWYQQKPGKAPKLLIYAASNLENGVPSRFSGSGSGTDFTLTISSLQPEDFATYYCQQSFSKSWTFGQGTNVDIK |  | 3.63 OD450 | 0.07 OD450
7 | TCN-555 (5246_L16) (antibody, V domains shown) VH: QVQLVQSGAEVKRPGSSVKVSCTASGGIFRKNAISWVRQAPGQGLEWMGGIIAVFNTANYAQKFQNRVKITADESGNTAYMELSSLTSDDTAVYYCASHPKYFYGSGSYPDFWGQGTLVTVSS VL: QSALTQPRSVSGSPGQSITISCTGGSSDIGASNSVSWYQQHPGKAPKLVIFDVTERPSGVPHRFSGSKSGNTASLTVSGLQPDDEADYFCCAYGGKYLVVFGGGTKVTVL |  | 2.89 OD450 | 0.06 OD450
8 | TCN-563 (5237_B21) (antibody, V domains shown) VH: QVQLAQSGAEVKRPGSSVKVSCTASGGIFRKNAISWVRQAPGQGLEWMGGIIAVFNTANYAQKFQGRVKITADESGNTAYMELSSLRSDDTAVYYCASHPKYFYGSGSYPDFWGQGTLVTVSS VL: QSALTQPRSVSGSPGQSVTISCTGSSSDVGASNSVSWYQQHPGKAPKLVIYDVTERPSGVPHRFSGSKSGNTASLTVSGLQPEDEADYFCCAYGGKYLVVFGGGTKVTVL |  | 3.62 OD450 | 0.07 OD450
